Data from patent publication US20220089698A1, “ANTIBODIES THAT TARGET HIV GP120 AND METHODS OF USE” (published 2022).

Key:
Experiment in all cases: cell-based or functional assay
[1] = target: HIV-1 envelope glycoprotein gp120 of virus 92US657 (HIV-1)
[2] = target: HIV-1 envelope glycoprotein gp120 of virus 92US727 (HIV-1)
[3] = target: HIV-1 envelope glycoprotein gp120 of virus 92HT593 (HIV-1)
[4] = target: HIV-1 envelope glycoprotein gp120 of virus 92US712 (HIV-1)
[5] = target: HIV-1 envelope glycoprotein gp120 of virus BaL (HIV-1)

B1: Antibody 1.1.10-1 (antibody, human IgG1, kappa)
heavy: QVQLLQSGAAVTKPGASVRVSCEASGYNIRDYFIHWWRQAPGQGLQWVGWINPKTGQPNNPRQFQGRVSLTRHASWDFDTFSFYMDLKALRSDDTAVYFCARQRSDYWDFDVWGSGTQVTVSSASTKGPSVFPLAPSSKSTSGGTAALGCLVKDYFPEPVTVSWNSGALTSGVHTFPAVLQSSGLYSLSSVVTVPSSSLGTQTYICNVNHKPSNTKVDKKVEPKSCDKTHTCPPCPAPELLAGPDVFLFPPKPKDTLMISRTPEVTCVVVDVSHEDPEVKFNWYVDGVEVHNAKTKPREEQYNSTYRVVSVLTVLHQDWLNGKEYKCKVSNKALPLPEEKTISKAKGQPREPQVYTLPPSREEMTKNQVSLTCLVKGFYPSDIAVEWESNGQPENNYKTTPPVLDSDGSFFLYSKLTVDKSRWQQGNVFSCSVLHEALHSHYTQKSLSLSPGK
light: not shown
With B1 the “Virus Neutralization Potency” value [1] was 1.83 µg/mL, the “Virus Neutralization Potency” value [2] was over 20 µg/mL and the “Virus Neutralization Potency” value [3] was 0.013 µg/mL. For the same binder, the “Virus Neutralization Potency” value [4] was 0.088 µg/mL and the “Virus Neutralization Potency” value [5] was 0.021 µg/mL.

B2: Antibody 1.33.32-1 (antibody, human IgG1, kappa)
heavy: QVQLVQSGAEVKKPGASVRVSCKASGYNIRDYFIHWWRQAPGQGLQWVGWINPKTGQPNNPRQFQGRVTLTRHASWDFDTFSFYMDLKALRSDDTATYFCARQRSDYWDFDVWGSGTQVTVSSASTKGPSVFPLAPSSKSTSGGTAALGCLVKDYFPEPVTVSWNSGALTSGVHTFPAVLQSSGLYSLSSVVTVPSSSLGTQTYICNVNHKPSNTKVDKKVEPKSCDKTHTCPPCPAPELLAGPDVFLFPPKPKDTLMISRTPEVTCVVVDVSHEDPEVKFNWYVDGVEVHNAKTKPREEQYNSTYRVVSVLTVLHQDWLNGKEYKCKVSNKALPLPEEKTISKAKGQPREPQVYTLPPSREEMTKNQVSLTCLVKGFYPSDIAVEWESNGQPENNYKTTPPVLDSDGSFFLYSKLTVDKSRWQQGNVFSCSVLHEALHSHYTQKSLSLSPGK
light: not shown
With B2 the “Virus Neutralization Potency” value [1] was 1.39 µg/mL, the “Virus Neutralization Potency” value [2] was over 20 µg/mL and the “Virus Neutralization Potency” value [3] was 0.01 µg/mL. For the same binder, the “Virus Neutralization Potency” value [4] was 0.062 µg/mL and the “Virus Neutralization Potency” value [5] was 0.063 µg/mL.

B3: Antibody 1.8.52-1 (antibody, human IgG1, kappa)
heavy: QVQLVQSGAEVTKPGASVRVSCEASGYNIRDYFIHWWRQAPGQGLQWVGWINPKTGQPNNPRQFQGRVSLTRHASWDFDTFSFYMDLKALRSDDTAVYFCARQRSDYWDFDVWGSGTQVTVSSASTKGPSVFPLAPSSKSTSGGTAALGCLVKDYFPEPVTVSWNSGALTSGVHTFPAVLQSSGLYSLSSVVTVPSSSLGTQTYICNVNHKPSNTKVDKKVEPKSCDKTHTCPPCPAPELLAGPDVFLFPPKPKDTLMISRTPEVTCVVVDVSHEDPEVKFNWYVDGVEVHNAKTKPREEQYNSTYRVVSVLTVLHQDWLNGKEYKCKVSNKALPLPEEKTISKAKGQPREPQVYTLPPSREEMTKNQVSLTCLVKGFYPSDIAVEWESNGQPENNYKTTPPVLDSDGSFFLYSKLTVDKSRWQQGNVFSCSVLHEALHSHYTQKSLSLSPGK
light: not shown
In the case of B3, the “Virus Neutralization Potency” value [1] is reported as 2.81 µg/mL, the “Virus Neutralization Potency” value [2] is reported as over 20 µg/mL and the “Virus Neutralization Potency” value [3] is reported as 0.015 µg/mL. For the same binder, the “Virus Neutralization Potency” value [4] was 0.141 µg/mL and the “Virus Neutralization Potency” value [5] was 0.076 µg/mL.
